Anti-infective test results gathered from many reports (values: NIAID ChemDB through PubChem).

Common to all: tests in culture; species: Herpes simplex virus 1; cell line: HEP-2; read-out: EC50

ECn: concentration that inhibits the pathogen or its effect by n%.

smiles | strain | method | value
O=c1[nH]c(=O)n([C@H]2C[C@H](O)[C@@H](CO)O2)cc1/C=C/Br | - | cytopathic effect | <0.01 µg/mL
NC(N)=N/N=C1/C/C(=N\N=C(N)N)c2cc3ccccc3cc21 | 13 (S11) | virus yield | 6 µM
O=c1[nH]c(=O)n([C@H]2C[C@H](O)[C@@H](CO)O2)cc1/C=C/Br | KOS | cytopathic effect | 0.02 µg/mL
CCCc1cn([C@H]2C[C@H](O)[C@@H](COP(=O)(O)O)O2)c(=O)[nH]c1=O | B2006 (TK-) | cytopathic effect | >797 µg/mL
O=c1[nH]c(=O)n([C@H]2C[C@H](O)[C@@H](CO)O2)cc1CCCl | - | cytopathic effect | <0.03 µg/mL
CCc1cn([C@H]2C[C@H](O)[C@@H](CO)O2)c(=O)[nH]c1=O | KOS | cytopathic effect | 0.8 µg/mL
Nc1nc2c(ncn2COC(CO)CO)c(=O)[nH]1 | - | cytopathic effect | <0.01 µg/mL
NC(N)N/N=C1/C/C(=N\NC(N)N)c2cc3ccccc3cc21 | MP | plaque count | 7.5 µM
Nc1nc2c(ncn2COCCO)c(=O)[nH]1 | KOS | cytopathic effect | 2 µg/mL
Cc1cn([C@@H]2O[C@H](CO)[C@@H](O)[C@@H]2F)c(=O)[nH]c1=O | - | cytopathic effect | <0.3 µg/mL
Nc1nc(=O)n([C@@H]2O[C@H](CO)[C@@H](O)[C@@H]2F)cc1I | KOS | cytopathic effect | 0.1 µg/mL
NC(N)NN=c1/c(=N\NC(N)N)c2cc3ccccc3cc2/c1=N\NC(N)N | MP | plaque count | 2.5 µM
O=c1[nH]c(=O)n([C@H]2C[C@H](O)[C@@H](CO)O2)cc1I | KOS | cytopathic effect | 0.7 µg/mL
Nc1ncnc2c1ncn2[C@@H]1C[C@H](CO)[C@@H](O)[C@@H]1O | HF | cytopathic effect | 2.8–9 µg/mL

A second listing of 2 rows from above:

smiles,strain,method,value
Nc1nc2c(ncn2COC(CO)CO)c(=O)[nH]1,-,cytopathic effect,<0.01 µg/mL
CCCc1cn([C@H]2C[C@H](O)[C@@H](COP(=O)(O)O)O2)c(=O)[nH]c1=O,B2006 (TK-),cytopathic effect,>797 µg/mL

a–b is a range or a potency band. An empty or dashed field is not shown. Neighbouring rows are from separate reports.